In patent US20150099705A1:

B1: NV1D2867 (peptide)
peptide: GPACQKWFQTCDAERKCCEGMVCRLWCKKKLW
modifications: not checked
B2: NV1D2910 (peptide)
peptide: B1 peptide with A3Q, M21L
modifications: not checked
B3: NV1D2774 (peptide)
peptide: B1 peptide with F8M, M21F
modifications: not checked
B4: NV1D2889 (peptide)
peptide: B1 peptide with A3S, Q9W, M21F
modifications: not checked
B5: NV1D2775 (peptide)
peptide: B1 peptide with A3Q, F8M, M21F
modifications: not checked
B6: NV1D2906 (peptide)
peptide: B1 peptide with A3Y, M21L
modifications: not checked
B7: NV1D2878 (peptide)
peptide: B1 peptide with A3S, A13S, M21L
modifications: not checked
B8: NV1D2882 (peptide)
peptide: B1 peptide with A13S, M21L
modifications: not checked
B9: NV1D2877 (peptide)
peptide: B1 peptide with A3S, A13S, M21F
modifications: not checked
B10: NV1D2918 (peptide)
peptide: B1 peptide with A3S, M21L
modifications: not checked
B11: NV1D2913 (peptide)
peptide: B1 peptide with A3R, M21F
modifications: not checked
B12: NV1D2905 (peptide)
peptide: B1 peptide with A3Y, M21F
modifications: not checked
B13: NV1D2881 (peptide)
peptide: B1 peptide with A13S, M21F
modifications: not checked
B14: NV1D2909 (peptide)
peptide: B1 peptide with A3Q, M21F
modifications: not checked
B15: NV1D2773 (peptide)
peptide: B1 peptide with A3S, F8M, M21F
modifications: not checked
B16: NV1D2772 (peptide)
peptide: B1 peptide with A3R, F8M, M21F
modifications: not checked
B17: NV1D2870 (peptide)
peptide: B1 peptide with A3Q, A13S, M21L
modifications: not checked
B18: NV1D2922 (peptide)
peptide: B1 peptide with M21L
modifications: not checked
B19: NV1D2921 (peptide)
peptide: B1 peptide with M21F
modifications: not checked
B20: NV1D2861 (peptide)
peptide: B1 peptide with A3Q
modifications: not checked
B21: NV1D2917 (peptide)
peptide: B1 peptide with A3S, M21F
modifications: not checked
B22: NV1D3034 (peptide)
peptide: GPQCQKWMQTCDRERKCCEGFVCTLWCRKKLW
modifications: not checked
B23: NV1D791 (peptide)
peptide: GPYCQKWMWTCDSKRKCCEGMVCRLWCKKKLW
modifications: not checked
B24: NV1D2735 (peptide)
peptide: B1 peptide with F8M, A13S, M21F
modifications: not checked
B25: NV1D1336 (peptide)
peptide: B23 peptide with K14E, M21L
modifications: not checked
B26: NV1D2814 (peptide)
peptide: B1 peptide with A3S, A13S
modifications: not checked
B27: NV1D12 (peptide)
peptide: B23 peptide with K14E
modifications: not checked
B28: NV1D1332 (peptide)
peptide: B23 peptide with K14N
modifications: not checked
B29: NV1D2816 (peptide)
peptide: B1 peptide with A13S
modifications: not checked

Columns and labels:
Assay in all cases: cell-based or functional assay
[1] = target: human Nav1.7 (sodium channel protein type 9 subunit alpha) (human), Q15858
[2] = target: human Nav1.5 (human), Q14524
human Nav1.6 (human) = target: human Nav1.6 (human)

| Binder | hNav1.7 TETRA IC50 [1] [nM] | also measured |
| --- | --- | --- |
| B1 | > 1000 | – |
| B2 | 441 | – |
| B3 | – | hNav1.5 QPatch IC50 [2]: > 3000 nM |
| B4 | 12.1 | – |
| B5 | – | hNav1.5 QPatch IC50 [2]: > 3000 nM |
| B6 | 940 | – |
| B7 | 680 | – |
| B8 | 857 | – |
| B9 | 441 | – |
| B10 | 983 | – |
| B11 | 79.7 | – |
| B12 | 713 | – |
| B13 | 488 | – |
| B14 | 97.1 | – |
| B15 | – | hNav1.5 QPatch IC50 [2]: > 3000 nM |
| B16 | – | hNav1.5 QPatch IC50 [2]: > 3000 nM; hNav1.7 QPatch IC50 [1]: 6.2 nM |
| B17 | 784 | – |
| B18 | 204 | – |
| B19 | 586 | – |
| B20 | > 1000 | – |
| B21 | 197 | – |
| B22 | – | hNav1.5 QPatch IC50 [2]: > 1000 nM |
| B23 | 4.8 | – |
| B24 | 60 | – |
| B25 | 10.5 | – |
| B26 | 754 | – |
| B27 | – | hNav1.5 QPatch IC50 [2]: > 1000 nM; IC50, QPatch electrophysiology assay (human Nav1.6 (human)): 6.2e-08 M |
| B28 | 6.7 | – |
| B29 | 667 | – |

Substitutions are numbered along the chain they refer to.
